## Potato spindle tuber viroid, loop 15: variant abundance in plants

Values reported by Wu et al. 2024 (doi:10.1371/journal.ppat.1012142).

The pool varies loop 15 of the PSTVd intermediate strain in the pattern GGAAACCGNNNNNNC; wild type is GGAAACCGCUACUAC (upper and lower strand joined, each 5' to 3', the first 7 letters being the upper strand, closing pairs included).

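A pool of all variants was put on leaves of three Nicotiana benthamiana plants. Progeny were sequenced from the inoculated region (day 5), the margin of the inoculated leaf (day 10) and systemic leaves (day 12).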

Numbers give reads per thousand; 0 = not seen among the reads, higher = more abundant.
Each value is the mean of three plants.
"Pool" is the share in the plasmid pool used as inoculum, on the same scale.
The inoculated region was read from the minus strand, the other sites from the plus strand.
IR is the inoculated region, LM the leaf margin, Sys the systemic leaves.
Wild type was 33.9 per thousand in the pool and the most common sequence in every sample (inoculated region 202, 200, 159; leaf margin 724, 746, 710; systemic leaves 856, 883, 880).
The authors trace changes outside the varied positions to PCR and sequencing errors or to mutation in the plant; presence does not show that a variant is infectious alone.
Samples held 43,870 to 66,106 reads, so the smallest values rest on one or two reads.

GGAAACCGAGUACGC (pool 0.368): IR 0.104; LM 0.00539; Sys 0.00537.
GGAAACCGGGUCUCC (pool 0.304): IR 0.131; LM 0.00668; Sys 0.
GGAAACCGUUUGCGC (pool 0.160): IR 0.110; LM 0.0228; Sys 0.
GGAAACCGUGUUCGC (pool 0.272): IR 0.226; LM 0.00742; Sys 0.00537.
GGAAACCGUUUAGUC (pool 0.208): IR 0.0713; LM 0; Sys 0.00537.
GGAAACCGCUACAGC (pool 0.224): IR 0.0895; LM 0.0128; Sys 0.
GGAAACCGGAGAGGC (pool 0.240): IR 0.0651; LM 0.00668; Sys 0.
GGAAACCGCCGUUUC (pool 0.272): IR 0.340; LM 0.138; Sys 0.0161.
GGAAACCGAACGCCC (pool 0.176): IR 0.0789; LM 0; Sys 0.
GGAAACCGAAAAACC (pool 0.192): IR 0.0808; LM 0.0241; Sys 0.
GGAAACCGACUACUC (pool 0.192): IR 0.120; LM 0.0121; Sys 0.00760.
GGAAACCGACCAGAC (pool 0.240): IR 0.113; LM 0.0195; Sys 0.00537.
GGAAACCGUAGUUAC (pool 0.192): IR 0.321; LM 0.126; Sys 0.0585.
GGAAACCGGUUACUC (pool 0.224): IR 0.0663; LM 0.00539; Sys 0.
GGAAACCGAGUCUCC (pool 0.208): IR 0.116; LM 0.00668; Sys 0.00537.
GGAAACCGAACUCCC (pool 0.272): IR 0.107; LM 0.0187; Sys 0.00537.
GGAAACCGACCCACC (pool 0.176): IR 0.106; LM 0.0175; Sys 0.
GGAAACCGGACGCCC (pool 0.336): IR 0.0668; LM 0.00742; Sys 0.
GGAAACCGAGAAAGC (pool 0.256): IR 0.285; LM 0.0236; Sys 0.
GGAAACCGCAUGAGC (pool 0.304): IR 0.0976; LM 0.00539; Sys 0.
GGAAACCGCUACGUC (pool 0.272): IR 0.140; LM 0.00742; Sys 0.00537.
GGAAACCGUUGCCUC (pool 0.144): IR 0.0902; LM 0; Sys 0.
GGAAACCGUGGACCC (pool 0.272): IR 0.0805; LM 0.00742; Sys 0.